The values that follow are results of earlier work, collected in EP2265632B1, “CD4-RELATED POLYPEPTIDES AND METHODS OF USE” (priority 2008, dated 2009).

In this data set the target is gp120 (Human immunodeficiency virus type 1 group M subtype B, UniProt P35961). The following applies: different target gp120; read-out: published KD value; cited from earlier work.

Usually Kd stands for the equilibrium constant for the complex coming apart. For the sequence RINNIPWSEAMM [12p1], the Kd is 3.7 µM.
